PubChem BioAssay AID1259414 – Drosophila RNAi Screening Center – 2018
In all, the deposit lists about 24,000 reagents; this is a random part of those with a known target gene and a result. In the full data, about 1,210 (5%) got an active call. 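Inactive calls also include excluded dsRNAs with several or no targets, genes unexpressed in JW18, and well A1, regardless of score.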 A number with no mark means an inactive call. Reagents against one gene are numbered here.

Purpose: 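Fly genes that alter Wolbachia amount inside host cells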 (primary screen)
System: Drosophila JW18 cells infected with Wolbachia
Reagent: long dsRNA against Drosophila genes, 0.25 µg dsRNA per well of a 384-well plate
Duration: 5 days
Treatment: cells persistently infected with Wolbachia before knock-down; no added drug
Measurement: 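Imaged fluorescence in situ signal for Wolbachia 23S rRNA per DAPI-counted host cell, given as a robust z-score within each plate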
Direction: Wolbachia per cell robust z: higher = more Wolbachia per host cell than the plate typical
Rule for the call: 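Hit when robust z is 1.5 or more, or -1.5 or less, in at least two of three replicates; excludes dsRNAs with several or no targets, genes not expressed in JW18 and well A1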

For lqf #1, how do the results read?
Wolbachia per cell robust z, rep 1: -0.781; Wolbachia per cell robust z, rep 2: 0.143; Wolbachia per cell robust z, rep 3: -0.0623

For lqf #2, what does the deposit list?
Wolbachia per cell robust z, rep 1: -6.85; Wolbachia per cell robust z, rep 2: 1.33; Wolbachia per cell robust z, rep 3: 0.293

With stmA #1, what does the deposit list?
Wolbachia per cell robust z, rep 1: 0.816; Wolbachia per cell robust z, rep 2: -0.115; Wolbachia per cell robust z, rep 3: -0.965

What is on record for stmA #2?
Wolbachia per cell robust z, rep 1: 0.499; Wolbachia per cell robust z, rep 2: 0.343; Wolbachia per cell robust z, rep 3: -0.0782

For CG33310 #1, what does the deposit list?
Wolbachia per cell robust z, rep 1: -0.273; Wolbachia per cell robust z, rep 2: 0.765; Wolbachia per cell robust z, rep 3: -0.341

What is on record for CG33310 #2?
Wolbachia per cell robust z, rep 1: -0.561; Wolbachia per cell robust z, rep 2: -1.67; Wolbachia per cell robust z, rep 3: 0.718

With Ykt6 #1, what was measured?
Wolbachia per cell robust z, rep 1: 1.16; Wolbachia per cell robust z, rep 2: 1.16; Wolbachia per cell robust z, rep 3: 1.21

For Ykt6 #2, what was measured?
Wolbachia per cell robust z, rep 1: -6.18; Wolbachia per cell robust z, rep 2: 1.44; Wolbachia per cell robust z, rep 3: 0.404

With CG16786, how do the results read?
Wolbachia per cell robust z, rep 1: 0.982; Wolbachia per cell robust z, rep 2: -0.309; Wolbachia per cell robust z, rep 3: -1.73

With CG17834 #1, how do the results read?
Wolbachia per cell robust z, rep 1: -1.25; Wolbachia per cell robust z, rep 2: -1.4; Wolbachia per cell robust z, rep 3: -1.93

For CG17834 #2, how do the results read?
Wolbachia per cell robust z, rep 1: -2.39 (active); Wolbachia per cell robust z, rep 2: -1.78; Wolbachia per cell robust z, rep 3: -0.124

What did the screen give for alphaTub84B #1?
Wolbachia per cell robust z, rep 1: 2.14; Wolbachia per cell robust z, rep 2: 0.764; Wolbachia per cell robust z, rep 3: -0.144

What is on record for alphaTub84B #2?
Wolbachia per cell robust z, rep 1: 3.2 (active); Wolbachia per cell robust z, rep 2: 3.74; Wolbachia per cell robust z, rep 3: 3.29

Hits, among the entries above:
CG17834 #2: Wolbachia per cell robust z, rep 1 = -2.39 (active); Wolbachia per cell robust z, rep 2 = -1.78; Wolbachia per cell robust z, rep 3 = -0.124
alphaTub84B #2: Wolbachia per cell robust z, rep 1 = 3.2 (active); Wolbachia per cell robust z, rep 2 = 3.74; Wolbachia per cell robust z, rep 3 = 3.29

Next reagents follow:
What is on record for CG12438?
Wolbachia per cell robust z, rep 1: -1.4; Wolbachia per cell robust z, rep 2: 0.613; Wolbachia per cell robust z, rep 3: -0.175

For Alg9, what was measured?
Wolbachia per cell robust z, rep 1: -10.5; Wolbachia per cell robust z, rep 2: -1.47; Wolbachia per cell robust z, rep 3: 0.0361

For CG10340, what was measured?
Wolbachia per cell robust z, rep 1: -2.37 (active); Wolbachia per cell robust z, rep 2: -8.15; Wolbachia per cell robust z, rep 3: -5.54

How did the screen score CG13711 #1?
Wolbachia per cell robust z, rep 1: 0.00842; Wolbachia per cell robust z, rep 2: -0.705; Wolbachia per cell robust z, rep 3: -1.02

For CG13711 #2, what was measured?
Wolbachia per cell robust z, rep 1: -0.495; Wolbachia per cell robust z, rep 2: -0.793; Wolbachia per cell robust z, rep 3: -0.647

With SoxN #1, what was measured?
Wolbachia per cell robust z, rep 1: -3.84; Wolbachia per cell robust z, rep 2: 0.56; Wolbachia per cell robust z, rep 3: -0.0355

For SoxN #2, what was measured?
Wolbachia per cell robust z, rep 1: 0.925; Wolbachia per cell robust z, rep 2: -0.0684; Wolbachia per cell robust z, rep 3: 0.376

For CG15357, what does the deposit list?
Wolbachia per cell robust z, rep 1: 0.364; Wolbachia per cell robust z, rep 2: -0.138; Wolbachia per cell robust z, rep 3: -0.132

With CG31663 #1, how do the results read?
Wolbachia per cell robust z, rep 1: -0.303; Wolbachia per cell robust z, rep 2: 0.465; Wolbachia per cell robust z, rep 3: 0.287

With CG31663 #2, what was measured?
Wolbachia per cell robust z, rep 1: -1.1; Wolbachia per cell robust z, rep 2: 0.565; Wolbachia per cell robust z, rep 3: 0.501

With CG31663 #3, what does the deposit list?
Wolbachia per cell robust z, rep 1: 0.273; Wolbachia per cell robust z, rep 2: 0.978; Wolbachia per cell robust z, rep 3: -1.18

For CG31663 #4, what was measured?
Wolbachia per cell robust z, rep 1: 0.336; Wolbachia per cell robust z, rep 2: 0.00352; Wolbachia per cell robust z, rep 3: -6.35
